A mixed list of measured activities; the numbers were collected in NIAID ChemDB.

Shared fields: cytotoxicity tests; cell line: MT-4; measure: CC50

CCn is the concentration with n% toxicity to the cells. Neighbouring rows are from separate reports. Blank or dashed fields: not listed here.

smiles | method | value
CN(C)CC1c2nc(C(=O)NCc3ccc(F)cc3)c(O)c(=O)n2CCN1C(=O)C(=O)N(C)C | microscopy | >1 µM
CCCn1c(=O)c(C)cn([C@H]2C[C@H](N=[N+]=[N-])[C@@H](CO)O2)c1=O | - | >345 µM
O=c1ccn([C@H]2C[C@@H](O)[C@H](CO)O2)c(=O)[nH]1 | - | >100 µM
CC(C)CCC[C@@H](C)[C@H]1CC[C@H]2[C@@H]3CC[C@H]4C[C@@H](CCC=C(c5cc(Cl)c(O)c(C(=O)O)c5)c5cc(Cl)c(O)c(C(=O)O)c5)CC[C@]4(C)[C@H]3CC[C@]12C | - | >300 µM
CCCn1c(Cl)c([N+](=O)[O-])c(=O)[nH]c1=O | - | ≥62.4 µg/mL
Cc1cn([C@@H]2O[C@@H](CO)[C@H](O)[C@H]2O)c(=O)[nH]c1=O | - | >1000 µM
Cc1cc(C)c(-n2c(SCC(=O)Nc3ccccc3Cl)nc3cccnc32)c(C)c1 | MTT | 3.9 µM
CC(=O)N1CCn2c(nc(C(=O)NCc3ccc(F)cc3)c(O)c2=O)C1 | microscopy | >1 µM
CCn1c(=O)c(C)cn([C@H]2C[C@H](N=[N+]=[N-])[C@@H](CO)O2)c1=O | - | 282 µM
CO[C@H]([C@@H]1OC[C@@](O)(CO)[C@H]1N=[N+]=[N-])n1cc(C)c(=O)[nH]c1=O | - | >300 µM
Cn1c(Sc2ccccc2)c([N+](=O)[O-])c(=O)n(C)c1=O | - | ≥81.2 µg/mL
O=C(NCc1ccc(F)cc1)c1nc2n(c(=O)c1O)CCN(Cc1cocn1)C21CC1 | microscopy | >1 µM
Cn1c(Sc2ccncc2)c([N+](=O)[O-])c(=O)n(C)c1=O | - | 11.6 µg/mL
CCOC(=O)C1c2cccn2S(=O)(=O)c2ccccc2N1C(=O)CBr | - | 10.7 µM
COc1cccc(OC)c1C(=O)c1nc(N(C)C)nc(OC)c1C | MTT | 8 µM
CN(C)C(=O)C(=O)N1CCn2c(nc(C(=O)NCc3ccc(F)cc3)c(O)c2=O)C(N(C)C(=O)C(=O)N(C)C)C1 | microscopy | >1 µM
Cc1cn([C@H]2C=C[C@@H](COP(=O)(Nc3cc(C(=O)Nc4cc(C(=O)Nc5cc(C(=O)NCCC#N)n(C)c5)n(C)c4)n(C)c3)OC(C)C)O2)c(=O)[nH]c1=O | MTT | 137 µM
CN(C)c1ccc(/C=C2/SC(=O)N(CC(=O)Nc3nc4ccc(SC#N)cc4s3)C2=O)cc1 | MTT | 61 µM
COc1nc(N(C)C)nc(C(C#N)c2c(F)cccc2F)c1C | MTT | 10 µM
Cc1cn(C2C[C@H](N=[N+]=[N-])[C@@H](COP(=O)(Nc3cc(C(=O)Nc4cc(C(=O)Nc5cc(C(=O)NCCC#N)n(C)c5)n(C)c4)n(C)c3)OC(C)C)O2)c(=O)[nH]c1=O | MTT | 82 µM
Nc1ncnc2c1ncn2[C@H]1C[C@@H](O)[C@H](CO)O1 | - | >1000 µM
Cc1cn([C@H]2C[C@H](N=[N+]=[N-])[C@@H](CO)O2)c(=O)n(C(C)C)c1=O | - | 278 µM
Cc1cc(C)c(-n2c(SCC(=O)Nc3ccc([N+](=O)[O-])cc3Cl)nc3cnccc32)c(C)c1 | MTT | 29 µM
Nc1ccn([C@H]2C[C@@H](O)[C@H](CO)O2)c(=O)n1 | - | >1 µM
N#CSc1ccc2nc(NC(=O)CN3C(=O)S/C(=C/c4cccc(-c5ccco5)c4)C3=O)sc2c1 | MTT | >100 µM
CCCn1c(Sc2ccccc2)c([N+](=O)[O-])c(=O)[nH]c1=O | - | >72.9 µg/mL
COc1cc(C(C#N)c2c(F)cccc2F)nc(N(C)C)n1 | MTT | 40 µM
N#CSc1ccc2nc(NC(=O)CN3C(=O)S/C(=C/c4cccc(Oc5ccccc5)c4)C3=O)sc2c1 | MTT | >100 µM
CNC(=O)c1c(O)c2ncc(Cc3ccc(F)cc3)c3c2n(c1=O)C[C@](C)(c1nnc(C)o1)O3 | - | 42 µM
N#CCC1Nc2ccccc2S(=O)(=O)n2cccc21 | - | >366 µM
CCc1c(Cc2cc(C)cc(C)c2)n(COC/C(=C/Sc2ccccc2)Sc2ccccc2)c(=O)[nH]c1=O | MTT | 60 µM
COC(=O)CC1c2cccn2S(=O)(=O)c2ccccc2N1C(=O)c1ccc(C)cc1 | - | >244 µM
S=C(NCCc1ccccc1)Nc1nccs1 | - | >100 µg/mL
CC1(C)c2nc(C(=O)NCc3ccc(F)cc3)c(O)c(=O)n2CCN1Cc1cnco1 | microscopy | >1 µM
NC(=O)CC1Nc2ccccc2S(=O)(=O)n2cccc21 | - | 206 µM
CCc1c(Cc2cc(C)cc(C)c2)n(COCC#Cc2cccc(O[Si](c3ccccc3)(c3ccccc3)C(C)(C)C)c2)c(=O)[nH]c1=O | MTT | >100 µM
O=C(CC1Nc2ccccc2S(=O)(=O)n2cccc21)OCc1ccc(Cl)cc1 | - | 48 µM
Cc1cn([C@H]2C=C[C@@H](COP(=O)(Nc3cc(C(=O)Nc4cc(C(=O)Nc5cc(C(=O)NCCC(=N)N)n(C)c5)n(C)c4)n(C)c3)OC(C)C)O2)c(=O)[nH]c1=O | MTT | 98 µM
O=C(CC1Nc2ccccc2S(=O)(=O)n2cccc21)Nc1ccc(Cl)cc1 | - | 12.5 µM
Cc1cc(C)c(-n2c(SCC(=O)Nc3ccccc3[N+](=O)[O-])nc3cnccc32)c(C)c1 | MTT | 9.9 µM
CCc1c(Cc2cc(C)cc(C)c2)n(COCC#Cc2ccc(NC(=O)C(F)(F)F)cc2)c(=O)[nH]c1=O | MTT | 36 µM
Cc1cn([C@H]2C[C@H](N=[N+]=[N-])[C@@H](COP(=O)(Nc3cc(C(=O)Nc4cc(C(=O)Nc5cc(C(=O)NCCC(=N)N)n(C)c5)n(C)c4)n(C)c3)OC3CCCCC3)O2)c(=O)[nH]c1=O | MTT | 42 µM
COc1cccc(F)c1C(=O)c1nc(N(C)C)nc(OC)c1C | MTT | 7.8 µM
CC(C)=CCn1c(=O)c(C)cn([C@H]2C[C@H](N=[N+]=[N-])[C@@H](CO)O2)c1=O | - | 151 µM
N#CSc1ccc2nc(NC(=O)CN3C(=O)S/C(=C/c4ccccc4Cl)C3=O)sc2c1 | MTT | 73 µM
CO[C@@H]([C@@H]1OC[C@@](O)(CO)[C@H]1N=[N+]=[N-])n1cc(C)c(=O)[nH]c1=O | - | >300 µM
O=c1c([N+](=O)[O-])c(Sc2ccccc2)nc2[nH]c(-c3ccccc3)cn12 | - | 2.56 µg/mL
Cc1cn([C@H]2C[C@H](N=[N+]=[N-])[C@@H](CO)O2)c(=O)n(Cc2ccccc2)c1=O | - | 210 µM
CCc1c(Cc2cc(C)cc(C)c2)n(COCc2ccc(C#CCO)cc2)c(=O)[nH]c1=O | MTT | 41 µM
CCOC(=O)C12CC(=O)N1c1ccccc1S(=O)(=O)n1cccc12 | - | 23 µM

A second listing of 3 rows from above:

| smiles | method | value |
|---|---|---|
| CCn1c(=O)c(C)cn([C@H]2C[C@H](N=[N+]=[N-])[C@@H](CO)O2)c1=O | - | 282 µM |
| O=c1c([N+](=O)[O-])c(Sc2ccccc2)nc2[nH]c(-c3ccccc3)cn12 | - | 2.56 µg/mL |
| CCCn1c(Cl)c([N+](=O)[O-])c(=O)[nH]c1=O | - | ≥62.4 µg/mL |